Results of unrelated studies side by side (data: NIAID ChemDB).

All rows: growth or infection tests; organism: HIV-1

ECn is the concentration giving n% inhibition of infection, replication or growth. Conditions beyond the fields shown may differ between rows. a–b is a range or a potency band. Blank or dashed fields: not listed here.

Cc1ncnn1-c1cc(F)ccc1CNC(=O)c1nc2n(c(=O)c1O)CCOC21CCN(S(C)(=O)=O)C1 ; read by: luciferase / reporter gene ; strain: NL4-3 ; measure: EC50 ; cell line: MT-2 ; value: 0.01–0.1 µM
C[C@]12CCC3C(CC[C@H]4C[C@@H](CCC=C(c5cc(Cl)c(O)c(C(=O)O)c5)c5cc(Cl)c(O)c(C(=O)O)c5)CC[C@]34C)C1CC[C@@H]2CCC=C(c1cc(Cl)c(O)c(C(=O)O)c1)c1cc(Cl)c(O)c(C(=O)O)c1 ; read by: cytopathic effect / MTT ; strain: RF ; measure: EC50 ; cell line: CEM + CEM-SS ; value: 1.3 µM
CCc1c(Cc2cc(C)cc(C)c2)n(COCCc2ccccc2)c(=O)[nH]c1=O ; read by: MTT ; strain: A17 ; mutations: K103N/Y181C ; measure: EC50 ; cell line: MT-4 ; value: >41 µM
C/C=C1\C(=O)NC(=O)N1[C@H]1C[C@H](N=[N+]=[N-])[C@@H](CO)O1 ; read by: ELISA ; strain: IIIB ; measure: EC50 ; cell line: MT-4 ; value: >100 µM
C[C@H](CCC(=O)O)[C@H]1CC[C@H]2[C@@H]3CC[C@@H]4C[C@H](O)CC[C@]4(C)[C@H]3C[C@H](O)[C@]12C ; read by: syncytia ; strain: IIIB ; measure: EC50 ; cell line: H9 ; value: <10 µg/mL
C=C1CC[C@H]2[C@@](C)(CC/C(=N\O)[C@@]2(C)CO)[C@@H]1/C=C/C1=CCOC1=O ; read by: cytopathic effect ; measure: EC50 ; cell line: C8166 ; value: 40.9 µM
CN1CC(=O)C(=O)C=C1Cn1cnc([N+](=O)[O-])c1Nc1ccc(Br)cc1 ; read by: MTT ; strain: IIIB ; measure: EC90 ; cell line: MT-4 ; value: >6.8 µM
C[C@@]1(F)[C@H](O)[C@@H](CO)O[C@H]1n1cc(Br)c2c(N)ncnc21 ; measure: EC90 ; cell line: PBMC ; value: >100 µM
CN(C)C1=C(C#N)/C(=C2/C(C#N)=C(N(C)C)N(c3ccc([N+](=O)[O-])cc3)c3c2n(C)c2ccccc32)c2c(c3ccccc3n2C)N1c1ccc([N+](=O)[O-])cc1 ; read by: cytopathic effect / XTT ; strain: A17 ; mutations: RT-K103N Y181C ; measure: EC50 ; cell line: CEM + CEM-SS ; value: 2.98–3.48 µM
CCCCCCC(C)[C@H]1CCC2C3CC[C@H]4C[C@@H](CCC=C(c5cc(Cl)c(O)c(C(=O)O)c5)c5cc(Cl)c(O)c(C(=O)O)c5)CC[C@]4(C)C3CC[C@@]21C ; read by: cytopathic effect / MTT ; strain: IIIB ; measure: EC50 ; cell line: CEM + CEM-SS ; value: 3 µM
CNc1ncnc2c1c(F)cn2[C@H]1O[C@H](CO)[C@@H](O)[C@@]1(C)F ; measure: EC90 ; cell line: PBMC ; value: >100 µM
COc1c(Cl)cc(C(=CCNC(=O)C[C@H]2CC[C@]3(C)C4CC[C@@]5(C)C(CC[C@@H]5CC(=O)NCC=C(c5cc(Cl)c(OC)c(C(=O)O)c5)c5cc(Cl)c(OC)c(C(=O)O)c5)C4CC[C@H]3C2)c2cc(Cl)c(OC)c(C(=O)O)c2)cc1C(=O)O ; read by: cytopathic effect / MTT ; strain: IIIB ; measure: EC50 ; cell line: CEM + CEM-SS ; value: 48 µM
Cc1cn([C@H]2C=C[C@@H](COC(=O)CC3(C)C[C@](C)(O)CO3)O2)c(=O)[nH]c1=O ; read by: cytopathic effect ; measure: EC50 ; cell line: JM ; value: 40 µM
Cc1noc(C)c1-c1ccc2c(c1)N(c1cc(N)c(F)cc1F)CCC2=O ; read by: p24 / ELISA ; strain: NL4-3 ; measure: EC50 ; cell line: PBMC ; value: 0.007 µM
CCc1c(Cc2cc(C)cc(C)c2)n(COCC2CC2)c(=O)[nH]c1=O ; read by: MTT ; strain: A17 ; mutations: K103N/Y181C ; measure: EC50 ; cell line: MT-4 ; value: >51 µM
Cc1ncnn1-c1cc(F)ccc1CNC(=O)c1nc2n(c(=O)c1O)CCOCC21CCN(C(=O)OCc2ccccc2)CC1 ; strain: NL4-3 ; measure: EC50 ; cell line: MT-2 ; value: 0.001–0.01 µM
CCc1c(Cc2cccc3ccccc23)nc(SCC(=O)NC)[nH]c1=O ; read by: antigen ; strain: IIIB ; measure: EC50 ; cell line: MT-4 ; value: >100 µM
C=C1CC[C@@H]2[C@](C)(CO)[C@H](O)CC[C@@]2(C)[C@@H]1CC(OC(C)=O)C1CCOC1=O ; read by: cytopathic effect ; measure: EC50 ; cell line: C8166 ; value: 1.62 µM
CCc1c(Cc2ccc(OC)c(OC)c2)n(COCc2ccccc2)c(=O)[nH]c1=O ; read by: MTT ; strain: EFVR ; mutations: K103R/V179D/P225H ; measure: EC50 ; cell line: MT-4 ; value: >80 µM
C#Cc1cn([C@@H]2O[C@H](CO)[C@@H](O)[C@@]2(C)F)c2nc(N)nc(N)c12 ; measure: EC90 ; cell line: PBMC ; value: >100 µM
CN1CC(=O)C(=O)C=C1Cn1cnc([N+](=O)[O-])c1Sc1ccc(Cl)cc1 ; read by: MTT ; strain: IIIB ; measure: EC50 ; cell line: MT-4 ; value: >3.6 µM
COC(=O)N1CCC2(CC1)OCCCn1c2nc(C(=O)NCc2ccc(F)cc2)c(O)c1=O ; read by: luciferase / reporter gene ; strain: NL4-3 ; measure: EC50 ; cell line: MT-2 ; value: 0.001–0.01 µM
Cc1nc2ccccc2nc1COC(=O)c1ccc(O)cc1O ; read by: RT activity ; strain: BaL ; measure: EC90 ; cell line: PBMC ; value: >100 µM
Cc1cc(C)c(Oc2nc(Nc3ccc(C#N)cc3)nc3ccsc23)c(C)c1 ; read by: luciferase ; measure: EC50 ; cell line: HeLa ; value: <0.01 µM
CN1CC(=O)C(=O)C=C1Cn1cnc([N+](=O)[O-])c1Nc1ccc(C#N)cc1 ; read by: MTT ; strain: IIIB ; measure: EC90 ; cell line: MT-4 ; value: >250 µM
COc1cc(-c2ccc(Nc3ccccc3C(=O)O)c(OC)c2)ccc1Nc1ccccc1C(=O)O ; read by: RT activity ; strain: 89BZ167 ; measure: EC90 ; cell line: PBMC ; value: 2.25 µM
Cc1cc(C#N)cc(C)c1Nc1nc(Nc2ccc(C#N)cc2)nc2c(C)csc12 ; read by: luciferase ; strain: Y-188L ; measure: EC50 ; cell line: HeLa ; value: <0.01 µM
CCCc1cc(=O)oc2c3c(c4c(c12)OC(C)(C)CC4)O[C@@H](C)[C@H](C)[C@@H]3O ; read by: XTT ; strain: Nevirapine-resistant (RT Y181C) ; mutations: RT-Y181C ; measure: EC50 ; cell line: CEM + CEM-SS ; value: 0.09 µM
CCc1c(Cc2ccccc2)n(COCCc2ccccc2)c(=O)[nH]c1=O ; read by: MTT ; strain: A17 ; mutations: K103N/Y181C ; measure: EC50 ; cell line: MT-4 ; value: >43 µM
Cc1cc(C)c(Oc2nc(Nc3ccc(C#N)cc3)nc3c(C)csc23)c(C)c1 ; read by: luciferase ; strain: Y-188L ; measure: EC50 ; cell line: HeLa ; value: 0.01–0.1 µM
COc1ccc(C(=O)OCc2nc3ccccc3nc2C)c(OC)c1OC ; read by: RT activity ; strain: 89BZ167 ; measure: EC50 ; cell line: PBMC ; value: 87.9 µM
CCc1cn([C@H]2O[C@H](CO)[C@@H](O)[C@@]2(C)F)c2ncnc(N)c12 ; measure: EC90 ; cell line: PBMC ; value: >100 µM
C=C1CC[C@@H]2[C@](C)(CO)[C@H](O)CC[C@@]2(C)[C@@H]1CC(OC(=O)/C=C/c1cc2c(cc1[N+](=O)[O-])OCO2)C1CCOC1=O ; read by: cytopathic effect ; measure: EC50 ; cell line: C8166 ; value: 1.158 µM
O=C(NCc1ccc(F)cc1)c1nc2n(c(=O)c1O)CCCCC21CCN(C(=O)OCc2ccccc2)CC1 ; read by: luciferase / reporter gene ; strain: NL4-3 ; measure: EC50 ; cell line: MT-2 ; value: 0.01–0.1 µM
CCOC(=O)[C@H](C)NP(=O)(OC[C@H]1O[C@@H](n2ccc3c(N)nc(N)nc32)[C@](C)(F)[C@@H]1O)Oc1ccccc1 ; measure: EC90 ; cell line: PBMC ; value: >100 µM
CCOCn1c(Cc2ccc(OC)c(OC)c2)c(CC)c(=O)[nH]c1=O ; read by: MTT ; strain: N119 ; mutations: Y181C ; measure: EC50 ; cell line: MT-4 ; value: >100 µM
Cc1cc(C#N)cc(C)c1Oc1nc(Nc2ccc(C#N)cc2)nc2sccc12 ; read by: luciferase ; strain: L1001-K103N ; measure: EC50 ; cell line: HeLa ; value: 0.01–0.1 µM
Cc1ncnn1-c1cc(F)ccc1CNC(=O)c1nc2n(c(=O)c1O)CCCOC21CCN(S(=O)(=O)N(C)C)CC1 ; read by: luciferase / reporter gene ; strain: NL4-3 ; measure: EC50 ; cell line: MT-2 ; value: 0.001–0.01 µM
COc1ccc2[nH]c(=O)c(CN(Cc3cccnc3)S(=O)(=O)c3cccc4nsnc34)cc2c1 ; read by: p24 / ELISA ; strain: IIIB ; measure: EC50 ; cell line: MOLT-4 ; value: 0.0179 µM
CC(CCC(=O)N[C@@H](Cc1ccc(O)cc1)C(=O)O)C1CCC2C3CCC4C[C@H](O)CCC4(C)C3C[C@H](O)C12C ; read by: syncytia ; strain: IIIB ; measure: EC50 ; cell line: H9 ; value: <0.01 µg/mL
COC(=O)C(C)NP(=O)(OC[C@H]1S[C@@H](n2cc(F)c(=O)[nH]c2=O)C[C@@H]1O)Oc1ccccc1 ; measure: EC50 ; cell line: CEM + CEM TK- ; value: >100 µM
CSCO[C@]1(C)COC(C)(CC(=O)OC[C@@H]2C=C[C@H](n3cnc4c(N)ncnc43)O2)C1 ; read by: cytopathic effect ; measure: EC50 ; cell line: C8166 ; value: 80 µM
COc1cccc(OC)c1C(=O)OCc1nc2ccccc2nc1C ; read by: RT activity ; strain: BaL ; measure: EC50 ; cell line: PBMC ; value: 24.3 µM
CCc1c(Cc2ccc(C)cc2)n(COCCCc2ccccc2)c(=O)[nH]c1=O ; read by: MTT ; strain: IIIB ; measure: EC50 ; cell line: MT-4 ; value: >43 µM
[N-]=[N+]=N[C@H]1C[C@@H](N2C(=O)NC(=O)/C2=C/c2ccccc2)O[C@@H]1CO ; read by: ELISA ; strain: IIIB ; measure: EC50 ; cell line: MT-4 ; value: >10 µM
O=c1[nH]c(=O)n([C@H]2C[C@H](O)[C@@H](CO)O2)cc1F ; measure: EC50 ; cell line: CEM ; value: 0.038 µM
Cc1cn([C@H]2C[C@H](N=[N+]=[N-])[C@@H](CO)O2)c(=O)[nH]c1=O ; read by: p24 / ELISA ; strain: MN ; measure: EC50 ; cell line: C8166 ; value: 0.0009 µg/mL
Cc1nc2ccccc2nc1COC(=O)c1ccc(O)cc1 ; read by: RT activity ; strain: BaL ; measure: EC50 ; cell line: PBMC ; value: >100 µM
C[C@@]1(F)[C@H](O)[C@@H](CO)O[C@@H]1n1ccc2c(N)nc(N)nc21 ; measure: EC90 ; cell line: PBMC ; value: >100 µM
COc1cc(OC)cc(C(=O)OCc2nc3ccccc3nc2C)c1 ; read by: RT activity ; strain: 89BZ167 ; measure: EC50 ; cell line: PBMC ; value: >100 µM
C=C1CC[C@H]2[C@@](C)(CC/C(=N\OC(=O)c3ccc(Cl)cc3)[C@@]2(C)CO)[C@@H]1/C=C/C1=CCOC1=O ; read by: cytopathic effect ; measure: EC50 ; cell line: C8166 ; value: 21.96 µM
Cc1cn([C@H]2C[C@H](N=[N+]=[N-])[C@@H](CO)O2)c(=O)[nH]c1=O ; read by: RT activity ; strain: BaL ; measure: EC50 ; cell line: PBMC ; value: 0.0044 µM
C[C@]12CCC3C(CC[C@H]4C[C@@H](CC=C(c5cc(Cl)c(O)c(C(=O)O)c5)c5cc(Cl)c(O)c(C(=O)O)c5)CC[C@]34C)C1CC[C@@H]2CC=C(c1cc(Cl)c(O)c(C(=O)O)c1)c1cc(Cl)c(O)c(C(=O)O)c1 ; read by: cytopathic effect / MTT ; strain: RF ; measure: EC50 ; cell line: MT-4 ; value: 12 µM

The last 4 rows once more:

compound | read by | strain | mutations | measure | cell line | value
COc1cc(OC)cc(C(=O)OCc2nc3ccccc3nc2C)c1 | RT activity | 89BZ167 | - | EC50 | PBMC | >100 µM
C=C1CC[C@H]2[C@@](C)(CC/C(=N\OC(=O)c3ccc(Cl)cc3)[C@@]2(C)CO)[C@@H]1/C=C/C1=CCOC1=O | cytopathic effect | - | - | EC50 | C8166 | 21.96 µM
Cc1cn([C@H]2C[C@H](N=[N+]=[N-])[C@@H](CO)O2)c(=O)[nH]c1=O | RT activity | BaL | - | EC50 | PBMC | 0.0044 µM
C[C@]12CCC3C(CC[C@H]4C[C@@H](CC=C(c5cc(Cl)c(O)c(C(=O)O)c5)c5cc(Cl)c(O)c(C(=O)O)c5)CC[C@]34C)C1CC[C@@H]2CC=C(c1cc(Cl)c(O)c(C(=O)O)c1)c1cc(Cl)c(O)c(C(=O)O)c1 | cytopathic effect / MTT | RF | - | EC50 | MT-4 | 12 µM